Pooled drug test results. Numbers come from NIAID ChemDB, via PubChem.

Shared fields: tests in culture; species: Coxsackie virus

Blank or dashed fields: not listed here.

smiles | strain or isolate | endpoint | read by | cells | value
OC[C@H]1O[C@@H](n2c(SCc3ccccn3)nc3ccccc32)[C@H](O)[C@@H]1O | B4 | EC50 | cytopathic effect | HEL | >100 µg/mL
Cc1cc(CCCCCOc2c(Cl)cc(C3=NCCO3)cc2Cl)on1 | B3 | EC50 | plaque count | RD-2 | 0.009 µg/mL
CCn1nnc(-c2ccc(OCCC(C)CCN3CCN(c4ccncc4)C3=O)cc2)n1 | B3 | EC50 | cytopathic effect | RD | 25 µM
NC1=CC(c2ccccc2)=Nn2c(nnc2-c2cn(-c3ccccc3)nc2-c2ccccc2)S1 | TYPE B4 | EC50 | cytopathic effect | HeLa | >16 µg/mL
COc1ccc(-n2c(Cc3nc4n(n3)CCCC4)n[nH]c2=S)cc1 | B4 | MIC | - | - | 80 µg/mL
CSc1ncnc2c1cnn2Cc1cn(CCCCO)nn1 | B4 | EC50 | - | VERO | >400 µg/mL
COc1ccc(-c2snc(SC)c2C#N)cc1 | TYPE B1 | EC50 | plaque count | HEP-2 | >10 µM
CS(=O)(=O)c1ccc(NCc2ccc(Cl)c(Cl)c2)nc1 | TYPE B4 | EC50 | cytopathic effect | HeLa | >10 µg/mL
Cc1cn([C@H]2C[C@H]([N+](=O)[O-])[C@@H](CO)O2)c(=O)[nH]c1=O | - | EC50 | cytopathic effect | VERO | >200 µg/mL
COc1ncnc2c1cnn2Cc1cn(CCCCO)nn1 | B4 | EC50 | - | HeLa | >400 µg/mL
CN(C)c1cccc(-c2nc3ccn(Cc4ccc(Br)cc4)cc-3n2)c1 | NANCY (TYPE B3) | EC50 | cytopathic effect | VERO | 6.1 µg/mL
Nc1nc2c(ncn2CC[C@H](O)CCO)c(=O)[nH]1 | TYPE B4 | EC50 | cytopathic effect | VERO | >400 µg/mL
CSc1ccc(Cc2ccc(S(C)(=O)=O)cn2)cc1 | TYPE A21 | EC50 | cytopathic effect | HeLa | >10 µg/mL
CS(=O)(=O)c1ccc(Oc2ccc(Cl)c(Cl)c2)c(C#N)c1 | TYPE A21 | EC50 | cytopathic effect | HeLa | 292 µM
Cc1nn2c(-c3cn(-c4ccccc4)nc3-c3ccccc3)nnc2s1 | TYPE B4 | EC50 | cytopathic effect | VERO | >3.2 µg/mL
CS(=O)(=O)c1ccc(Cc2ccc(N)cc2)nc1 | TYPE A21 | EC50 | cytopathic effect | HeLa | >10 µg/mL
Nc1ncnc2c1ncn2C[C@H](O)CO | TYPE B4 | EC50 | cytopathic effect | VERO | 70 µg/mL
O=C1CSc2nnc(-c3cn(-c4ccccc4)nc3-c3ccccc3)n2N1 | TYPE B4 | EC50 | cytopathic effect | HeLa | >16 µg/mL
CCn1c(-c2ccccc2)c(C)c(=O)c2cc(OCC(C)C)ccc21 | TYPE B4/JVB | EC50 | cytopathic effect | HeLa S3 | >4 µg/mL
S=c1cc(-c2ccccc2)s[nH]1 | TYPE B1 | EC50 | plaque count | HEP-2 | >90 µM
CS(=O)c1ccc(Cc2ccc(S(C)(=O)=O)cn2)cc1 | TYPE A21 | EC50 | cytopathic effect | HeLa | >10 µg/mL
C=C(N=CC)c1nc(-c2ccccc2)n([C@@H]2O[C@H](CO)[C@@H](O)[C@H]2O)n1 | TYPE B4 | EC50 | cytopathic effect | VERO | >100 µg/mL
Nn1c(-c2cn(-c3ccccc3)nc2-c2ccccc2)n[nH]c1=S | TYPE B4 | EC50 | cytopathic effect | HeLa | >16 µg/mL
C=CC(CO)(CO)CCn1cnc2c(N)ncnc21 | TYPE B3 | EC50 | - | - | >100 µg/mL
COc1ccc(-n2c(-c3ccccc3)c(C)c(=O)c3cc(C(C)C)ccc32)cc1 | TYPE A7 | EC50 | cytopathic effect | HeLa S3 | >2.5 µg/mL
CC(=O)OCCOCN1C=CC(=O)NS1(=O)=O | TYPE B4 | EC50 | - | VERO | >400 µg/mL
Nc1ncnc2c1ncn2C1CC(COP(=O)(O)O)[C@@H](O)[C@H]1O | TYPE B4 | EC50 | cytopathic effect | VERO | ≥10 µg/mL
CSc1nsc(-c2ccc(OCc3ccccc3)cc2)c1C#N | TYPE B1 | EC50 | plaque count | HEP-2 | 10 µM
CC=NC(=N)c1nc(-c2cccc(C)c2)n(C/C=C/c2ccccc2)n1 | TYPE B4 | EC50 | cytopathic effect | HeLa | >10 µg/mL
N#CC1=CN(COCCO)S(=O)(=O)N=C1N | TYPE B4 | EC50 | - | VERO | >400 µg/mL
CCn1c(-c2cccc(F)c2)c(C)c(=O)c2cc(C(C)C)ccc21 | TYPE B4/JVB | EC50 | cytopathic effect | HeLa S3 | >4 µg/mL
CCOc1cc(O)c(C(=O)/C=C/c2ccc(OC)cc2)c(OC)c1 | B1 | EC50 | cytopathic effect | HeLa | >3 µg/mL
CC(=O)OCCOCN1C(N)=CC(N)=NS1(=O)=O | TYPE B4 | EC50 | - | VERO | >400 µg/mL
Nc1nc(-n2c(-c3ccccc3)nc3ccc(Br)cc3c2=O)nnc1-c1cccc(Cl)c1Cl | TYPE B4 | EC50 | cytopathic effect | HeLa | >16 µg/mL
CSc1nsc(-c2ccc(OS(=O)(=O)c3ccc(C)cc3)cc2)c1C#N | TYPE B1 | EC50 | plaque count | HEP-2 | >25 µM
Cc1nc(CC(=O)NN)nn1C | B4 | MIC | - | - | >400 µg/mL
CCOC(=O)C1=CSc2nnc(-c3cn(-c4ccccc4)nc3-c3ccccc3)n2N=C1N | TYPE B4 | EC50 | cytopathic effect | HeLa | >16 µg/mL
CSc1nsc(-c2ccc(O)cc2)c1C#N | TYPE B1 | EC50 | plaque count | HEP-2 | >2 µM
Nc1ncnc2c1ncn2[C@@H]1C=C(CO)[C@@H](O)C1 | TYPE B4 | EC50 | cytopathic effect | VERO | 40 µg/mL
Cc1cn(CC[C@H](O)CCO)c(=O)[nH]c1=O | TYPE B4 | EC50 | cytopathic effect | VERO | >400 µg/mL
Nc1nc(Cl)c2ncn([C@H]3CO[C@@H](CO)C3)c2n1 | TYPE B4 | EC50 | cytopathic effect | HeLa | >200 µg/mL
CCn1nc(CC(=O)NN=C(C)C)nc1C | B4 | MIC | - | - | >400 µg/mL
CNc1ncnc2c1cnn2Cc1cn(CCCCO)nn1 | B4 | EC50 | - | VERO | >400 µg/mL
Nc1nc(Cl)c2ccn([C@H]3CO[C@@H](CO)C3)c2n1 | TYPE B4 | EC50 | cytopathic effect | VERO | >200 µg/mL
CCOC(=O)C1=CN(COCCOC(C)=O)S(=O)(=O)N=C1N | TYPE B4 | EC50 | - | HeLa | >400 µg/mL
OCCOCn1c(CCc2ccccn2)nc2cc(Cl)c(Cl)cc21 | B4 | EC50 | cytopathic effect | HEL | >100 µg/mL
CCc1nc(-n2c(-c3ccccc3)nc3ccc(Br)cc3c2=O)nc(N)c1-c1ccc(Cl)cc1 | TYPE B4 | EC50 | cytopathic effect | HeLa | >16 µg/mL
OCCOCn1c(SCc2ccccn2)nc2ccccc21 | B4 | EC50 | cytopathic effect | HEL | >100 µg/mL
Nc1ccn(CC[C@H](O)CCO)c(=O)n1 | TYPE B4 | EC50 | cytopathic effect | VERO | >400 µg/mL
NC1CSCON2CCc3c([nH]c4ccccc34)[C@H]12 | TYPE B4 | EC50 | cytopathic effect | HeLa | 0.7 µg/mL
O=C1C=CN(COCCO)S(=O)(=O)N1COCCO | TYPE B4 | EC50 | - | VERO | >400 µg/mL
N#Cc1c(Cl)nsc1Cl | TYPE B1 | EC50 | plaque count | HEP-2 | >4 µM
COc1ccc2[nH]c3c(c2c1)CCN1OCSCC(N)[C@@H]31 | TYPE B4 | EC50 | cytopathic effect | HeLa | 0.02 µg/mL
OC[C@H]1O[C@@H](n2c(CCc3ccccn3)nc3ccccc32)[C@H](O)[C@@H]1O | B4 | EC50 | cytopathic effect | HEL | >100 µg/mL
c1ccc(-c2nc3ccn(CC4CCCCC4)cc-3n2)cc1 | NANCY (TYPE B3) | EC50 | cytopathic effect | VERO | 6.5 µg/mL
Cc1cc(Oc2ccc(Cl)c(Cl)c2)ccc1S(C)(=O)=O | TYPE A21 | EC50 | cytopathic effect | HeLa | 151 µM
CCSC1NN=C(Cc2nc(C)n(C)n2)N1c1ccccc1 | B4 | MIC | - | - | 400 µg/mL
Nn1c(SCC(=O)O)nnc1-c1cn(-c2ccccc2)nc1-c1ccccc1 | TYPE B4 | EC50 | cytopathic effect | VERO | >80 µg/mL
Nc1nccc2c1ncn2[C@@H]1C[C@H](CO)[C@@H](O)[C@H]1O | TYPE B4 | EC50 | cytopathic effect | HeLa | >400 µg/mL
NC1CCCON2CCc3c([nH]c4ccccc34)[C@H]12 | TYPE B4 | EC50 | cytopathic effect | VERO | 7 µg/mL
CCn1nc(Cc2n[nH]c(=S)o2)nc1C | B4 | MIC | - | - | >400 µg/mL
CCn1c(-c2cccs2)cc(=O)c2cc(C(C)C)ccc21 | TYPE A7 | EC50 | cytopathic effect | HeLa S3 | 3.9 µg/mL
CC=NC(=N)c1nc(-c2ccc(OC)cc2)n(Cc2ccccc2)n1 | TYPE B4 | EC50 | cytopathic effect | HeLa | >10 µg/mL
Cc1nc2ccc(Br)cc2c(=O)n1-c1nnc(-c2cccc(Cl)c2Cl)c(N)n1 | TYPE B4 | EC50 | cytopathic effect | HeLa | >16 µg/mL
S=c1[nH]n2c(-c3cn(-c4ccccc4)nc3-c3ccccc3)nnc2s1 | TYPE B4 | EC50 | cytopathic effect | VERO | >80 µg/mL
FC(F)(F)c1ccccc1Cn1ccc2nc(-c3ccccc3)nc-2c1 | NANCY (TYPE B3) | EC50 | cytopathic effect | VERO | 8.95 µg/mL
Nc1ncnc2c1ncn2[C@H]1C[C@@H](CO)[C@H](O)[C@@H]1O | TYPE B4 | EC50 | cytopathic effect | HeLa | >400 µg/mL
CS(=O)(=O)c1ccc(Cc2ccc(Br)cc2)nc1 | TYPE A21 | EC50 | cytopathic effect | HeLa | 5 µg/mL
Nc1ncnc2c1ncn2C[C@H](O)CO | TYPE B4 | EC50 | cytopathic effect | HeLa | >400 µg/mL
OC[C@H]1O[C@H](c2cc(Cl)c(F)cc2F)C[C@@H]1O | TYPE B4 | EC50 | cytopathic effect | VERO | >80 µg/mL
CC(C)CS[C@@H]1C[C@H](n2cnc3c(N)ncnc32)[C@@H](O)[C@H]1O | TYPE B4 | EC50 | cytopathic effect | HeLa | >80 µg/mL
Nc1ncnc2c1ncn2CC[C@H](O)CCO | TYPE B4 | EC50 | cytopathic effect | VERO | >400 µg/mL
Nc1ncnc2c1ncn2[C@@H]1C=C(CO)[C@@H](O)[C@@H]1O | TYPE B4 | EC50 | cytopathic effect | HeLa | >400 µg/mL
N#CC1=CSc2nnc(-c3cn(-c4ccccc4)nc3-c3ccccc3)n2N=C1N | TYPE B4 | EC50 | cytopathic effect | VERO | 80 µg/mL
CC(=O)OCCOCN1C=C(C#N)C(N)=NS1(=O)=O | TYPE B4 | EC50 | - | HeLa | >400 µg/mL
C=C(N=CC)c1nc(-c2cccc(OC)c2)n(C2O[C@H](CO)[C@@H](O)[C@H](O)[C@H]2O)n1 | TYPE B4 | EC50 | cytopathic effect | HeLa | >400 µg/mL
CC(=O)Nc1ccc(Cc2ccc(S(C)(=O)=O)cn2)cc1 | TYPE A21 | EC50 | cytopathic effect | HeLa | >10 µg/mL

For reference, 9 entries again:

smiles	strain or isolate	endpoint	read by	cells	value
CSc1ncnc2c1cnn2Cc1cn(CCCCO)nn1	B4	EC50	-	VERO	>400 µg/mL
Cc1cn(CC[C@H](O)CCO)c(=O)[nH]c1=O	TYPE B4	EC50	cytopathic effect	VERO	>400 µg/mL
N#Cc1c(Cl)nsc1Cl	TYPE B1	EC50	plaque count	HEP-2	>4 µM
CN(C)c1cccc(-c2nc3ccn(Cc4ccc(Br)cc4)cc-3n2)c1	NANCY (TYPE B3)	EC50	cytopathic effect	VERO	6.1 µg/mL
CC(=O)OCCOCN1C=C(C#N)C(N)=NS1(=O)=O	TYPE B4	EC50	-	HeLa	>400 µg/mL
S=c1cc(-c2ccccc2)s[nH]1	TYPE B1	EC50	plaque count	HEP-2	>90 µM
c1ccc(-c2nc3ccn(CC4CCCCC4)cc-3n2)cc1	NANCY (TYPE B3)	EC50	cytopathic effect	VERO	6.5 µg/mL
Nc1nc(Cl)c2ncn([C@H]3CO[C@@H](CO)C3)c2n1	TYPE B4	EC50	cytopathic effect	HeLa	>200 µg/mL
CS(=O)(=O)c1ccc(Cc2ccc(N)cc2)nc1	TYPE A21	EC50	cytopathic effect	HeLa	>10 µg/mL

ECn is the concentration giving n% inhibition of infection, replication or growth. Lines come from different laboratories, so protocols vary.